Measured values: PMC6204821, “Inhibitory effect of microalgae and cyanobacteria extracts on influenza virus replication and neuraminidase activity” (PeerJ, 2018)

Molecular target: neuraminidase of B/Perth/211/2001 Yam (D197E) (Influenza B virus, UniProt Q3S340, D197E)
Format: biochemical
Conditions: read-out: IC50 NA B/Perth/211/2001 Yam (D197E)

CCC(CC)O[C@@H]1C=C(C(=O)O)C[C@H](N)[C@H]1NC(C)=O [OST-car, Oseltamivir carboxylate]
IC50: 10 ± 2 nM
